According to US11725005B2:

System: JCV laboratory strain MAD-1
Assay: JCV antiviral potency in Cos 7 cells
Format: cell-based, JC polyomavirus

SMILES: Cc1ccc(NC(=O)c2ccc(CN3CCN(C)CC3)cc2)cc1Nc1nccc(-c2cncc(-c3cn[nH]c3)c2)n1
- Antiviral activity against JCV: little antiviral activity
